From patent US20230375531A1

Tests used:
[1] = target: biotinylated monoFc-ACE2 receptor (human ACE2 residues 19-615 with N-terminal monoFc) (human) (UniProt Q9BYF1); test: BLI association phase
[2] = target: biotinylated monoFc-ACE2 receptor (human ACE2 residues 19-615 with N-terminal monoFc) (human) (UniProt Q9BYF1)

**Q.** What does the source list for “SARS-CoV-2 Spike receptor binding domain fused to cellulose binding domain (RBD-CBD) (from UniProt P0DTC2 332-532; Q06851 276-434)”?
**A.** percent of RBD/ACE2 receptor complex formed within 5 min [1]: > 80%; Kd [2]: 12.7 nM
